Pooled drug test results. Numbers come from NIAID ChemDB, via PubChem.

All rows: cytotoxicity tests; cell line: MT-4; read-out: CC50

An empty or dashed field is not shown. CCn is the concentration with n% toxicity to the cells. Conditions beyond the fields shown may differ between rows.

structure	read by	result
C[C@H](Cn1cnc2c(N)ncnc21)OCP(=O)(O)O	tetrazolium	>250 µM
Cc1cn([C@H]2C[C@H](F)[C@@H](CN)O2)c(=O)[nH]c1=O		>500 µM
COc1cc(Cc2cnc(/N=C3\C(=O)N(CN4CCCC4)c4ccc(F)cc43)nc2N)cc(OC)c1OC	MTT	129.6 µg/mL
Cc1cn([C@H]2C[C@H](NC#N)[C@@H](CO)O2)c(=O)[nH]c1=O		100 µM
COc1c(C(=O)/C=C(/C)Nc2ccccc2)c(O)c(S(=O)(=O)OC2CCCC2)c2occc12	MTT	450 µM
CCCN(C=Nc1ccn([C@H]2C[C@H](CO)[C@@H](CO)O2)c(=O)n1)CCC		>300 µM
Nc1ncnc2c1nc(Br)n2[C@H]1CC[C@@H](CO)O1		>500 µM
CCn1cc(C(=O)O)c(=O)c2cc(F)c(N3CCN(CN4C(=O)/C(=N\c5ncc(Cc6cc(OC)c(OC)c(OC)c6)c(N)n5)c5cc(F)ccc54)C(C)C3)c(F)c21	MTT	130.9 µg/mL
Cn1c2ccccc2c2c1cc(C#N)c(=O)n2-c1ccc([N+](=O)[O-])cc1	MTT	>32 µM
O=C(O)CN(CCCN(CCN(CC(=O)O)CC(=O)O)Cc1cnc2c(O)cccc2c1)CC(=O)O	MTT	>50 µM
Fc1cccc(-c2nc(-c3nnc(C45CCC6CC(CC4C6)C5)o3)cs2)c1	MTT	>125 µM
CC(=O)Oc1cc(C(=O)Nc2ccc(S(=O)(=O)Nc3ccccc3Br)cc2)cc(OC(C)=O)c1OC(C)=O		>25 µM
Cc1ccc(C(C)c2c(C)c(=O)[nH]c(=O)n2COCc2ccccc2)cc1	MTT	>343 µM
Nc1ncnc2c1ncn2N1CC[C@H](CO)[C@H]1CO		>10 µg/mL
Cc1cn([C@H]2C[C@H](N=[N+]=[N-])[C@@H](CCO)O2)c(=O)[nH]c1=O		>200 µg/mL
COc1c(-c2cc(C)on2)c(O)c(S(=O)(=O)OC2CCCCC2)c2occc12	MTT	330 µM
Cn1c([S-])nc2nc(-c3ccccc3)c(-c3ccccc3)nc2c1=O.Cn1c([S-])nc2nc(-c3ccccc3)c(-c3ccccc3)nc2c1=O.[O]=[V+2]		61.43 µg/mL
Nc1nc2c(ncn2[C@H]2CO[C@@H](CCP(=O)(O)O)O2)c(=O)[nH]1		90 µg/mL
CSCO[C@H]1C[C@H](n2cc(C)c(=O)[nH]c2=O)O[C@@H]1CO		>500 µM
CCn1cc(C(=O)O)c(=O)c2cc(F)c(N3CCN(CN4C(=O)/C(=N\c5ncc(Cc6cc(OC)c(OC)c(OC)c6)c(N)n5)c5cc(F)ccc54)CC3)cc21	MTT	160.2 µg/mL
COc1c(C(=O)/C=C(/C)Nc2ccc([N+](=O)[O-])cc2)c(O)c(S(=O)(=O)OC2CCCCC2)c2occc12	MTT	490 µM
CN[C@@H]1[C@H](O[C@@H]2OC[C@@H](O)[C@H](O)[C@H]2O)[C@@H](O)[C@H](O[C@H]2c3cc(C)c(C(=O)N[C@H](C)C(=O)O)c(O)c3-c3c(cc4c(c3O)C(=O)c3cc(OC)cc(O)c3C4=O)[C@@H]2O)O[C@@H]1C		>30 µg/mL
CCN1C(=O)c2cccn2S(=O)(=O)c2cc(Cl)ccc21		283 µM
Nc1nc(=O)n([C@H]2CC[C@H](CO)O2)cc1F		>436 µM
Nc1ccn([C@H]2CC[C@@H](CO)O2)c(=O)n1	MTT	2200 µM
C=C(C)C(=O)NC(=O)NC1OC(CO[Si](C)(C)C(C)(C)C)C2(OS(=O)(=O)C=C2N)C1O[Si](C)(C)C(C)(C)C		2.85 µM
C=C(c1ccccc1)c1c(C)c(=O)[nH]c(=O)n1COCc1ccccc1	MTT	133 µM
CN1C(=O)c2cccn2S(=O)(=O)c2ccc(Cl)cc21		110 µM
CC(C)(C)C(=O)Nc1ccn([C@H]2C[C@H](CO)[C@@H](CO)O2)c(=O)n1		>300 µM
O=C(/C=C/c1ccc(O)c(O)c1)Nc1ccc(S(=O)(=O)Nc2ccc(Br)cc2)cc1		15 µM
CCC(O)(c1ccc(OC)cc1)c1c(C)c(=O)[nH]c(=O)n1COCc1ccccc1	MTT	63.81 µM
COc1c(-c2cc(C)n(C)n2)c(O)c(S(=O)(=O)OC2CCCCC2)c2occc12	MTT	220 µM
Nc1ncn([C@H]2CC[C@H](CO)O2)c(=O)n1		>471 µM
CC(C)N1C(=O)c2cccn2S(=O)(=O)c2cc(Cl)ccc21		>300 µM
Clc1ccccc1-c1nc(-c2nnc(C34CCC5CC(CC3C5)C4)o2)cs1	MTT	>125 µM
C=C(C)C(=O)NC(=O)N[C@@H]1OC(CO[Si](C)(C)C(C)(C)C)C2(OS(=O)(=O)C=C2N)C1O[Si](C)(C)C(C)(C)C		9.1 µM
CC(C)COC12CCC(C(=O)C1)C1C(=O)N(CCCCN3CCN(c4ccccc4)CC3)C(=O)C12	MTT	84 µM
COc1c(-c2cc(C)on2)c(O)c(S(=O)(=O)OC2CCCC2)c2occc12	MTT	320 µM
Cc1cccc(C(C)c2c(C)c(=O)[nH]c(=O)n2COCc2ccccc2)c1	MTT	>343 µM
Nc1nc(=O)n([C@@H]2CC[C@H](CO)O2)cc1F		>436 µM
CCOc1cccc(F)c1CCNC(=S)Nc1ccc(Br)cn1		50 µM
Nc1ccn([C@H]2CC[C@H](CO)O2)c(=O)n1		>473 µM
CC(=O)Oc1ccc(/C=C/C(=O)Nc2ccc(S(=O)(=O)Nc3ccc(Cl)c(Cl)c3)cc2)cc1OC(C)=O		20 µM
O=c1ccn([C@@H]2O[C@H](CO)C=C2Cl)c(=O)[nH]1		>500 µM
COc1cc([C@@H]2c3cc(O)c(OC)cc3C(=O)[C@@H](C)[C@H]2C)ccc1O	MTT	91.2 µg/mL
O=c1[nH]cnc2c1ncn2[C@H]1C[C@H](F)[C@@H](CO)O1		818 µM
CCCCCCOc1cccc(CCNC(=S)Nc2nccs2)c1		8 µM
CCCC(=O)N[C@H]1C[C@H](n2cc(C)c(=O)[nH]c2=O)O[C@@H]1CO		1000 µM
COc1cc(Cc2cnc(/N=C3\C(=O)N(CN4CCN(C)CC4)c4ccc(F)cc43)nc2N)cc(OC)c1OC	MTT	106.7 µg/mL
Brc1ccc(-c2nc(-c3nnc(C45CCC6CC(CC4C6)C5)o3)cs2)cc1	MTT	≥110 µM
CCOC(=O)c1nnsc1NCCCCNc1snnc1C(=O)OCC	MTT	105 µM
Fc1ccccc1CCNC(=S)Nc1nccs1		75 µM
COc1cc(Cc2cnc(/N=C3\C(=O)N(CN4CCC(C)CC4)c4ccc(F)cc43)nc2N)cc(OC)c1OC	MTT	69.6 µg/mL
COc1c(C(=O)/C=C(/C)Nc2ccccc2)c(O)c(S(=O)(=O)OC2CCCCC2)c2occc12	MTT	490 µM
O=c1ccn([C@H]2C=C(CO)CO2)c(=O)[nH]1		>100 µg/mL
O=c1nc(N=CN2CCOCC2)ccn1[C@H]1C[C@H](CO)[C@@H](CO)O1		>300 µM
Clc1ccc(-c2nc(-c3nnc(C45CCC6CC(CC4C6)C5)o3)cs2)cc1	MTT	>125 µM
O=c1nc(N=CN2CCCCC2)ccn1[C@H]1C[C@H](CO)[C@@H](CO)O1		>300 µM
CC(=O)Oc1ccc(/C=C/C(=O)Nc2ccc(S(=O)(=O)Nc3cccc(Cl)c3F)cc2)cc1OC(C)=O		>25 µM
CCOC(=O)c1csc(NC(=S)NCCc2ccccc2)n1		60 µM
Cn1cc(C(=O)O)c(=O)c2ccc(N3CCN(c4nc5ccccc5s4)CC3)nc21	MTT	24.7 µg/mL

Repeating the first 8 entries:

{"structure": "C[C@H](Cn1cnc2c(N)ncnc21)OCP(=O)(O)O", "read by": "tetrazolium", "result": ">250 µM"}
{"structure": "Cc1cn([C@H]2C[C@H](F)[C@@H](CN)O2)c(=O)[nH]c1=O", "result": ">500 µM"}
{"structure": "COc1cc(Cc2cnc(/N=C3\\C(=O)N(CN4CCCC4)c4ccc(F)cc43)nc2N)cc(OC)c1OC", "read by": "MTT", "result": "129.6 µg/mL"}
{"structure": "Cc1cn([C@H]2C[C@H](NC#N)[C@@H](CO)O2)c(=O)[nH]c1=O", "result": "100 µM"}
{"structure": "COc1c(C(=O)/C=C(/C)Nc2ccccc2)c(O)c(S(=O)(=O)OC2CCCC2)c2occc12", "read by": "MTT", "result": "450 µM"}
{"structure": "CCCN(C=Nc1ccn([C@H]2C[C@H](CO)[C@@H](CO)O2)c(=O)n1)CCC", "result": ">300 µM"}
{"structure": "Nc1ncnc2c1nc(Br)n2[C@H]1CC[C@@H](CO)O1", "result": ">500 µM"}
{"structure": "CCn1cc(C(=O)O)c(=O)c2cc(F)c(N3CCN(CN4C(=O)/C(=N\\c5ncc(Cc6cc(OC)c(OC)c(OC)c6)c(N)n5)c5cc(F)ccc54)C(C)C3)c(F)c21", "read by": "MTT", "result": "130.9 µg/mL"}